Experimental data from paper doi:10.1101/2021.06.17.448816 (bioRxiv, 2021).

Experiments:
[1] = molecular target: T1, Full-length human primosome (Pol α: […]; B subunit: […]; PriS: […]; PriL: […]) (human); test: pull-down; settings: both partners purified
T1 construct: also called DNA polymerase α - primase complex; Pol α - primase

[2] = molecular target: T2, Truncated human primosome (Pol α: […]; B subunit: […]; PriS: […]; PriL: […]) (human); test: pull-down; settings: both partners purified
T2 construct: also called truncated primosome; Pol α - primase

B1: MBP-tagged SARS-CoV-2 nsp1 (full-length, His6-MBP fusion) (natural protein)
chain: not shown
binding result [1]: binds | binding result [2]: binds
